Compound potency records, mixed from different reports. Data source: NIAID ChemDB in PubChem.

Common to all: whole-cell or culture tests; organism: Aspergillus flavus; read by: agar diffusion; read-out: zone

Rows are shuffled and stem from different studies.

smiles,tested at,strain,result
CCCCNCc1cc2ccccc2nc1Cl,200 µg/mL,MTCC 277,8.25 mm
Cn1c(=O)c(-c2[nH][nH]c(=O)c2C=Nc2ccc(N)cc2)c(O)c2ccccc21,1 mg/mL,ATCC 28542,15 mm
O=C(CNC(=O)c1ccncc1)NN1C(=O)/C(=C/c2ccccc2[N+](=O)[O-])SC1c1ccccc1[N+](=O)[O-],100 µg/mL,-,24 mm
Clc1nc2ccccc2cc1CNc1ccc(Br)cc1,200 µg/mL,MTCC 277,10.46 mm
O=C(CNC(=O)c1ccncc1)NN1C(=O)CSC1c1ccc(Cl)cc1,50 µg/mL,-,17 mm
Cc1cc(=O)n(-c2ccc(N=Nc3c(-c4c(O)c5ccccc5n(C)c4=O)[nH][nH]c3=O)cc2)n1C,1 mg/mL,ATCC 28542,11 mm
C=C1SCN(NC(=O)CNC(=O)c2ccncc2)C1=O,100 µg/mL,-,14 mm
COc1ccc(NCc2cc3ccccc3nc2Cl)cc1,200 µg/mL,MTCC 277,12.96 mm
COc1ccc(/C=c2\c(=O)[nH][nH]\c2=C2/C(=O)c3ccccc3N(C)C2=O)cc1OC,1 mg/mL,ATCC 28542,11 mm
Cc1ccc2c(c1)C(C=NNC(=O)N1c3ccccc3C=Cc3ccccc31)C(c1ccccc1)=N2,1000 µg/mL,MTCC-1973,5 mm
CN(Cc1cc2ccccc2nc1Cl)c1ccc(F)c(Cl)c1,200 µg/mL,MTCC 277,20.82 mm
COc1ccccc1C1SCC(=O)N1NC(=O)CNC(=O)c1ccncc1,100 µg/mL,-,15 mm
O=C(NN=CC1C(c2ccccc2)=Nc2ccc(Cl)cc21)N1c2ccccc2C=Cc2ccccc21,500 µg/mL,MTCC-1973,12 mm
O=C(CNC(=O)c1ccncc1)NN1C(=O)/C(=C/c2ccc(Cl)cc2)SC1c1ccc(Cl)cc1,100 µg/mL,-,20.5 mm
Fc1ccc(NCc2cc3ccccc3nc2Cl)cc1,200 µg/mL,MTCC 277,15.03 mm
Cc1cc(=O)n(-c2ccc(N=Cc3c(-c4c(O)c5ccccc5n(C)c4=O)[nH][nH]c3=O)cc2)n1C,1 mg/mL,ATCC 28542,11 mm
Cc1ccc2c(c1)C(C1SCC(=O)N1NC(=O)N1c3ccccc3C=Cc3ccccc31)C(c1ccccc1)=N2,500 µg/mL,MTCC-1973,2 mm
O=C(CNC(=O)c1ccncc1)NN1C(=O)/C(=C/c2cccc(Br)c2)SC1c1cccc(Br)c1,100 µg/mL,-,16.6 mm
Cn1c(=O)c(-c2[nH][nH]c(=O)c2C=Nc2ccncc2)c(O)c2ccccc21,1 mg/mL,ATCC 28542,14 mm

For reference, 2 entries again:

{"smiles": "O=C(CNC(=O)c1ccncc1)NN1C(=O)/C(=C/c2ccc(Cl)cc2)SC1c1ccc(Cl)cc1", "tested at": "100 µg/mL", "result": "20.5 mm"}
{"smiles": "O=C(CNC(=O)c1ccncc1)NN1C(=O)/C(=C/c2cccc(Br)c2)SC1c1cccc(Br)c1", "tested at": "100 µg/mL", "result": "16.6 mm"}

An empty or dashed field is not shown. Zone: diameter of growth inhibition.